HIV-1 5' UTR: DMS reactivities by position

The 5' region of HIV-1 NL4-3 RNA (positions 1-437):
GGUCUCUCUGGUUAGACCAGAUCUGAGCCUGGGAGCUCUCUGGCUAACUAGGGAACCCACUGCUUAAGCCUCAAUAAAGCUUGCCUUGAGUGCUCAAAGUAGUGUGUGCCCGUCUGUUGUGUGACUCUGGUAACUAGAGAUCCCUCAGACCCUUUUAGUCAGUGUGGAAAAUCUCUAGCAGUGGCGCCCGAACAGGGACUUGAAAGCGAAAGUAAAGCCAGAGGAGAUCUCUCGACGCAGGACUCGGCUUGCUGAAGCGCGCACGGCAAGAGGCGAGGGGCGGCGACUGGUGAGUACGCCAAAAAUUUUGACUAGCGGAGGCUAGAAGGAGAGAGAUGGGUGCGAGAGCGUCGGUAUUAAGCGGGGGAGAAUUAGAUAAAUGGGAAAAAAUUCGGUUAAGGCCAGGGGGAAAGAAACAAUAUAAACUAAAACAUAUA

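Randomly mutated transcripts starting with one, two or three G (1G, 2G, 3G), capped or uncapped, were folded for 30 min at 37 °C. High salt was 300 mM KCl and 5 mM MgCl2, low salt 40 mM KCl and 0.1 mM MgCl2; monomer and dimer were parted on a native gel. Gel slices were treated with 170 mM dimethyl sulfate for 15 min at 37 °C and read by mutational profiling against an ethanol control.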

Scale: normalised reactivity, A and C only; low values point to paired or protected bases, higher values to unpaired ones.
One numbering serves 1G, 2G and 3G.
A position is written with its base.

position,3G uncapped high-salt dimer,1G capped low-salt monomer,2G capped low-salt monomer
C48,0.03,0.11,0.03
A149,0.07,0.12,0.15
A177,0.23,0.24,0.25
A204,0.64,0.70,0.68
C245,0.08,0.21,0.25
A263,0.81,0.24,0.22
A327,1.01,0.99,0.93
A379,0.55,0.60,0.57
A390,0.90,0.91,0.92
A412,0.47,0.51,0.50
A424,0.28,0.34,0.31
A429,0.65,0.72,0.69

Extract of 2 entries:

position	3G uncapped high-salt dimer	1G capped low-salt monomer	2G capped low-salt monomer
A412	0.47	0.51	0.50
A263	0.81	0.24	0.22

From the data files of Ye et al. 2022, doi:10.1038/s41594-022-00746-2.